Pooled drug test results. Numbers come from NIAID ChemDB, via PubChem.

Common to all: tests in culture; agent: Mycobacterium smegmatis; measure: MIC

Blank or dashed fields: not listed here. Rows are shuffled and stem from different studies. a–b is a range or a potency band.

| SMILES | mutations | method | strain or isolate | result |
|---|---|---|---|---|
| NCCCNCc1ccnc(Nc2ccn(CCOCCN3CCC(N)CC3)c(=O)n2)c1 | - | turbidity | - | 32–128 µg/mL |
| O=C(NCCNC(=O)c1ccc2c(c1)B(O)OC2)c1ccc2c(c1)B(O)OC2 | - | visual reading / absorbance | mc2155 | 780 µM |
| COc1cc2c(cc1OC)CN(c1cc3c(=O)c(C(=O)O)c4n(c3cc1[N+](=O)[O-])CS4)CC2 | - | agar | ATCC 14468 | 106.5 µM |
| O=C1COc2ccc(N3C[C@H]4CN(CCn5c(=O)ccc6ccc(Oc7cccnc7)nc65)C[C@@H]4OC3=O)nc2N1 | - | broth dilution | ATCC 19420 | ≤1 µg/mL |
| CSCC[C@H](NS(=O)(=O)c1ccc(C)cc1)C(=O)N/N=C1/CCc2ccccc21 | - | broth dilution / visual reading | ATCC 607 | >250 µg/mL |
| CCCCCCCCCCCCCCCCCCCCNC(=O)NC(CCC(=O)O)(CCC(=O)O)CCC(=O)O | - | - | mc155 | 36 µg/mL |
| CN[C@H]1[C@@H](O)[C@@H](O)[C@@H](O[C@H]2CC[C@@H](n3cc(NC(=O)c4ccc(NC(=O)[C@@](C)(N)CO)cc4)cnc3=O)O[C@H]2C)O[C@H]1C | - | broth dilution / agar diffusion | - | 16 µg/mL |
| NC1CCN(CCCCn2ccc(Nc3cc(COCCCNC4CC4)ccn3)nc2=O)CC1 | - | turbidity | - | <8 µg/mL |
| CCCCCCCCC/C=C/c1cc(=O)c2ccccc2n1C | - | MTT | ATCC 19420 | 3.2 µM |
| CSCC[C@H](NS(=O)(=O)c1ccc(C)cc1)C(=O)NN | - | broth dilution / visual reading | ATCC 607 | 262.3 µg/mL |
| CCCCCCCCCCCCCCCCCCCCCCCCCCCCCCOC(=O)NC(C)(CCC(=O)O)CCC(=O)O | - | - | - | 70 µg/mL |
| CC(C)c1ccc(-n2c(=O)sn(-c3ccc(SC(F)(F)F)cc3)c2=O)cc1 | - | broth dilution | mc2155 | 25 µg/mL |
| NNC(=O)c1ccncc1 | - | - | MC^2 144 | 5 µg/mL |
| CCCCCCCCOCC(C)(CO)[C@@H]1O[C@H]([C@H](O)CO)C(O)C1O | - | absorbance | mc2155 | >2 µM |
| CCCCCCCCCCCCCCCCCCNC(=O)NC(CCC(=O)O)(CCC(=O)O)CCC(=O)O | - | - | mc155 | 3 µg/mL |
| CCCCCCCCO | - | absorbance | mc2155 | >3.8 µM |
| Cn1c(=O)sn(-c2cccc3ccccc23)c1=O | - | broth dilution | mc2155 | 25 µg/mL |
| Cc1nc(-c2ccc(Cl)cc2)sc1-c1cn2cc(Br)ccc2n1 | - | broth dilution / absorbance | mc2155 | >50 µg/mL |
| O=c1sn(-c2ccc([N+](=O)[O-])cc2Cl)c(=O)n1CC1CC1 | - | broth dilution | mc2155 | 50 µg/mL |
| CSCC[C@H](NS(=O)(=O)c1ccc(C)cc1)C(=O)N/N=C/c1ccc([N+](=O)[O-])s1 | - | broth dilution / visual reading | ATCC 607 | 128.7 µg/mL |
| CCCC[C@@H](CN[C@H](CN)CCCCNC)NCc1cccc2ccccc12 | - | absorbance | mc2155 | 12.5 µM |
| Cc1nc(-c2ccc(Cl)cc2)sc1-c1cn2cc(Cl)ccc2n1 | - | broth dilution / absorbance | mc2155 | >50 µg/mL |
| CCOC(=O)c1cccc(-n2sc(=O)n(C3Cc4ccccc4C3)c2=O)c1 | - | broth dilution | mc2155 | 50 µg/mL |
| C=C1C2CCC(CO)[C@@]23CC[C@H](C3)C1(C)C | Ciprofloxacin-resistant | agar diffusion | CSC101 | 12.5 µg/mL |
| Cc1cccc(Cl)c1-n1sc(=O)n(CC2CC2)c1=O | - | broth dilution | mc2155 | 100 µg/mL |
| NC1CCN(CCCCn2ccc(Nc3cc(CO)ccn3)nc2=O)CC1 | - | turbidity | - | 32–128 µg/mL |
| O=c1sn(-c2ccccc2C(F)(F)F)c(=O)n1CC1CC1 | - | broth dilution | mc2155 | 50 µg/mL |
| CSCC[C@H](NS(=O)(=O)c1ccc(C)cc1)C(=O)N/N=C(\C)c1ccc(Cl)s1 | - | broth dilution / visual reading | ATCC 607 | >250 µg/mL |
| CCCC[C@@H](CN[C@H](CN)CCN)NCc1cccc2ccccc12 | - | absorbance | mc2155 | 25 µM |
| C[C@H]1O[C@H](O[C@H]2CC[C@H](n3ccc(NC(=O)c4ccc(N5CN[C@@](C)(CO)C5=O)cc4)nc3=O)O[C@@H]2C)[C@H](O)[C@@H](O)[C@@H]1N(C)C | - | broth dilution / agar diffusion | - | 32 µg/mL |
| CCCCCCCCO[C@@H]1O[C@H]([C@H](C)O)C(O)C1O | - | absorbance | mc2155 | 0.86 µM |
| CCCCCCCCCC(CCCCCCCCC)NC(=O)NC(CCC(=O)O)(CCC(=O)O)CCC(=O)O | - | - | mc155 | 108 µg/mL |
| CCCCCCCCC(O)[C@@H]1O[C@H]([C@H](O)C(=O)O)C(O)C1O | - | absorbance | mc2155 | 0.16 µM |
| CN1CCN(c2cc3c(=O)c(C(=O)O)c4n(c3cc2F)CS4)CC1c1ccccc1 | - | agar | ATCC 14468 | 58.76 µM |
| CSCC[C@H](NS(=O)(=O)c1ccc(C)cc1)C(=O)N/N=C/c1ccc(Cl)cc1 | - | broth dilution / visual reading | ATCC 607 | >250 µg/mL |
| COc1ccc2c3conc3c(=O)n(CCN3C[C@@H]4CN(c5ccc6c(n5)NC(=O)CO6)C(=O)O[C@H]4C3)c2n1 | - | broth dilution | ATCC 19420 | ≤1 µg/mL |
| CCO | - | absorbance | mc2155 | 0.86 µM |
| O=C(O)c1c2n(c3cc(F)c(N4CCSCC4)cc3c1=O)CS2 | - | agar | ATCC 14468 | 70.94 µM |
| C[C@](N)(CO)C(=O)NCc1ccc(Nc2ccn(CCCCN3CCC(N)CC3)c(=O)n2)nc1 | - | turbidity | - | 8–32 µg/mL |
| O=C(O)c1c2n(c3cc(F)c(N4CCC(n5c(=O)[nH]c6ccc(Cl)cc65)CC4)cc3c1=O)CS2 | - | agar | ATCC 14468 | 49.91 µM |
| CSCC[C@H](NS(=O)(=O)c1ccc(C)cc1)C(=O)N/N=C/C1CC2=CCC1C2 | - | broth dilution / visual reading | ATCC 607 | >250 µg/mL |
| CC(C)(C)OC(=O)NC1C2CN(c3cc4c(=O)c(C(=O)O)c5n(c4cc3[N+](=O)[O-])CS5)CC21 | - | agar | ATCC 14468 | 13.17 µM |
| CSCC[C@H](NS(=O)(=O)c1ccc(C)cc1)C(=O)N/N=C/c1ccco1 | - | broth dilution / visual reading | ATCC 607 | >515 µg/mL |
| CCCCCCCCC(O)[C@@H]1O[C@H]([C@H](O)CN)C(O)C1O | - | absorbance | mc2155 | 0.3 µM |
| NC1CCN(CCCCn2ccc(Nc3cc(C(=O)N4CC[C@@H](O)C4)ccn3)nc2=O)CC1 | - | turbidity | - | 32–128 µg/mL |
| Cc1ccc(-c2nc(C)c(-c3cn4cc(Cl)ccc4n3)s2)cc1 | - | broth dilution / absorbance | mc2155 | >50 µg/mL |
| CSCC[C@H](NS(=O)(=O)c1ccc(C)cc1)C(=O)N/N=C(\C)c1ccsc1 | - | broth dilution / visual reading | ATCC 607 | >250 µg/mL |
| Cc1nc(-c2ccccc2)sc1-c1cn2cc(Cl)ccc2n1 | - | broth dilution / absorbance | mc2155 | >50 µg/mL |
| O=C(O)c1c2n(c3cc([N+](=O)[O-])c(N4CCC(n5c(=O)[nH]c6ccc(Cl)cc65)CC4)cc3c1=O)CS2 | - | agar | ATCC 14468 | 11.84 µM |
| NC1CCN(CCCCn2ccc(Nc3ccc(CNC4CNC4)cn3)nc2=O)CC1 | - | turbidity | - | 8–32 µg/mL |
| CCCCCCCCOCC(C)(COCCCCCCCC)[C@@H]1O[C@H]([C@H](O)CO)C(O)C1O | - | absorbance | mc2155 | 0.5 µM |

The first 5 rows once more:

| SMILES | mutations | method | strain or isolate | result |
|---|---|---|---|---|
| NCCCNCc1ccnc(Nc2ccn(CCOCCN3CCC(N)CC3)c(=O)n2)c1 | - | turbidity | - | 32–128 µg/mL |
| O=C(NCCNC(=O)c1ccc2c(c1)B(O)OC2)c1ccc2c(c1)B(O)OC2 | - | visual reading / absorbance | mc2155 | 780 µM |
| COc1cc2c(cc1OC)CN(c1cc3c(=O)c(C(=O)O)c4n(c3cc1[N+](=O)[O-])CS4)CC2 | - | agar | ATCC 14468 | 106.5 µM |
| O=C1COc2ccc(N3C[C@H]4CN(CCn5c(=O)ccc6ccc(Oc7cccnc7)nc65)C[C@@H]4OC3=O)nc2N1 | - | broth dilution | ATCC 19420 | ≤1 µg/mL |
| CSCC[C@H](NS(=O)(=O)c1ccc(C)cc1)C(=O)N/N=C1/CCc2ccccc21 | - | broth dilution / visual reading | ATCC 607 | >250 µg/mL |